Results deposited as PubChem BioAssay AID504761 (Drosophila RNAi Screening Center, 2011).

Screen: 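Genome-wide fly cell screen for genes dengue virus requires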 (primary screen)
Cell system: D.Mel-2 cells from Drosophila
Reagents: long dsRNA against Drosophila genes
Conditions: infection with dengue virus type 2; dose and infection time not stated
Read-out: 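Per well on two replicate plates, imaging gave the percent of cells positive for viral envelope protein, ranked by infection, and a nuclear count of cells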
Scale: infection score: higher = more virus-infected cells; cell count: higher = more cells in the well
Call rule: 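Very low infection ranking in both replicate wells (chance probability at most 0.065), then a retest showing infection dropped 1.5-fold or more at p below 0.05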
Calls: active = confirmed: knock-down lowers infection; inactive = not picked or not confirmed
The deposit covers about 22,000 reagents; this is a random part of those with a known target gene and a result. Over the whole deposit, 116 (0.52%) are marked active. 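Calls depend on retest data that are not deposited; infection was ranked per plate without normalising between plates; the unit of the infection score is not given.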 Raw values are not corrected between plates. Names joined by + are all predicted targets of the reagent. Not stated in the record: the amount of reagent, the time to read-out.

The first 3 entries as a preview:
gene | dsRNA | infection score, replicate 1 | infection score, replicate 2 | cell count, replicate 1 | cell count, replicate 2 | Call
CG18661 | DRSC02690 | 3.09 | 4.27 | 6561 | 6581 | inactive
CG4465 | DRSC15584 | 7.54 | 0.63 | 6482 | 6011 | inactive
Pino | DRSC00038 | 13.3 | 6.2 | 5822 | 6275 | inactive

The listing, from the start:
gene | dsRNA | infection score, replicate 1 | infection score, replicate 2 | cell count, replicate 1 | cell count, replicate 2 | Call
CG18661 | DRSC02690 | 3.09 | 4.27 | 6561 | 6581 | inactive
CG4465 | DRSC15584 | 7.54 | 0.63 | 6482 | 6011 | inactive
Pino | DRSC00038 | 13.3 | 6.2 | 5822 | 6275 | inactive
Pino | DRSC00662 | 4.52 | 1.67 | 6170 | 6479 | inactive
CG34205 | DRSC04149 | 32.1 | 16.6 | 5725 | 4646 | inactive
CG34205 | DRSC22823 | 1.07 | 3.2 | 6100 | 6440 | inactive
Ttc26 | DRSC15591 | 3.19 | 2.23 | 6765 | 6785 | inactive
Ttc26 | DRSC27237 | 3.97 | 21.3 | 6831 | 6194 | inactive
CG32647 | DRSC19690 | 8.07 | 12.1 | 6397 | 7031 | inactive
CG32647 | DRSC19878 | 19.4 | 6.71 | 5769 | 5874 | inactive
SelR | DRSC16071 | 2.09 | 8.91 | 6662 | 6554 | inactive
TpnC41C | DRSC04916 | 13.8 | 0.89 | 3829 | 675 | inactive
CG31955 | DRSC00285 | 6.3 | 4.36 | 6314 | 6703 | inactive
CG10375 | DRSC28520 | 16.1 | 5.55 | 5685 | 1730 | inactive
CG11362 | DRSC04106 | 13.1 | 13.4 | 6196 | 5887 | inactive
CG11362 | DRSC22032 | 4.89 | 1.27 | 6160 | 6316 | inactive
CG11362 | DRSC27136 | 4.64 | 6.39 | 6791 | 6216 | inactive
M6 | DRSC11869 | 4.79 | 14.6 | 5944 | 5409 | inactive
CG14282 | DRSC14763 | 6.74 | 4.75 | 5905 | 6692 | inactive
CG14282 | DRSC26234 | 12.7 | 8.07 | 5108 | 3384 | inactive
CG15475 | DRSC02486 | 4.11 | 12.4 | 6472 | 5566 | inactive
CG15475 | DRSC30114 | 3.11 | 7.91 | 6549 | 6014 | inactive
Tep2 | DRSC02679 | 4.12 | 9.14 | 6292 | 6599 | inactive
Tep2 | DRSC03451 | 5.32 | 5.68 | 6338 | 6604 | inactive
CG6654 | DRSC16084 | 9.53 | 31 | 6802 | 5488 | inactive
CG6067 | DRSC18399 | 1.78 | 5.79 | 6233 | 6738 | inactive
Polr1E | DRSC14506 | 1.88 | 21.4 | 6811 | 5517 | inactive
Polr1E | DRSC15358 | 3.5 | 3.57 | 6088 | 6589 | inactive
Tsp66A + CG42661 + CG42660 | DRSC10233 | 4.46 | 24.8 | 6118 | 5327 | inactive
KP78a + KP78b | DRSC16721 | 3.09 | 8.72 | 6656 | 1238 | inactive
KP78a + KP78b | DRSC16722 | 1.43 | 13.8 | 6582 | 5551 | inactive
Sas-4 | DRSC12505 | 4.1 | 2.48 | 6609 | 6440 | inactive
Tengl1 | DRSC00481 | 2.87 | 3.03 | 6134 | 6336 | inactive
Gk2 | DRSC08610 | 5.03 | 10.8 | 6003 | 5836 | inactive
CG4972 | DRSC02798 | 5 | 1.35 | 6260 | 6457 | inactive
Crtc | DRSC23130 | 0.96 | 1.55 | 6447 | 6834 | inactive
Crtc | DRSC26174 | 7.42 | 2.03 | 5608 | 6068 | inactive
CG18641 | DRSC00527 | 3.28 | 3.4 | 5946 | 6770 | inactive
Yod1 | DRSC10433 | 11.4 | 9.6 | 6647 | 6124 | inactive
Yod1 | DRSC27122 | 11.5 | 9.77 | 6777 | 6298 | inactive
Cpr49Ah | DRSC07204 | 2.58 | 13.3 | 6820 | 6020 | inactive
Cpr49Ah | DRSC29547 | 21.9 | 23.1 | 5155 | 5518 | inactive
CG31156 | DRSC15753 | 4.04 | 7.88 | 6382 | 6953 | inactive
CG31156 | DRSC15755 | 5.77 | – | 3311 | 316 | inactive
mRpL24 | DRSC03113 | 10.1 | 13.7 | 4621 | 4676 | inactive
CG2652 | DRSC18501 | 24 | 13.8 | 5482 | 5187 | inactive
CG2652 | DRSC22576 | 2 | 1.03 | 6648 | 6703 | inactive
CG2652 | DRSC27496 | 2.45 | 4.27 | 6482 | 6366 | inactive
Cyt-b5-r | DRSC03308 | – | 5.07 | 95 | 6683 | inactive
brn | DRSC18746 | 8.13 | 31.1 | 6589 | 637 | inactive
CG31441 | DRSC15723 | 2.41 | 4.33 | 6399 | 6373 | inactive
CG31441 | DRSC27463 | 13.4 | 16.9 | 5899 | 4350 | inactive
CG3436 | DRSC00605 | 12.2 | 13.3 | 4913 | 4489 | inactive
CG13722 | DRSC08331 | 3.84 | 4.88 | 6093 | 5323 | inactive
CG13722 | DRSC21616 | 0.54 | 3.02 | 5919 | 5961 | inactive
CG13722 | DRSC24663 | 7.41 | 5.49 | 5357 | 4610 | inactive
CG13713 | DRSC08322 | 2.08 | 2.03 | 5916 | 6162 | inactive
pirk | DRSC04269 | 11.9 | 9.67 | 6259 | 6642 | inactive
